Results of unrelated studies side by side (data: NIAID ChemDB).

Common to all: whole-cell or culture tests; agent: Candida albicans; measure: MIC

An empty or dashed field is not shown. Conditions beyond the fields shown may differ between rows. a–b is a range or a potency band.

smiles | strain | read by | result
C[n+]1c2cccc(Cl)c2cc2sc3ccccc3c21 | ATCC 90028 | resazurin | >20 µg/mL
Cc1ccc(Cn2cncc2CNc2cccc(-c3ccccc3)c2)cc1 | 3 strains |  | 6.25–12.5 µM
C=CCNC(=S)NNC(=O)CSc1nnc(-c2ccco2)n1-c1ccc(Br)cc1 | ATCC 10231 |  | 8 µg/mL
CCOc1cc2c(cc1F)n([O-])c(C)c(Cl)[n+]2=O | Clinical isolate 4 |  | 15.6 µg/mL
CCCCCCCCCOC[n+]1cccc(NCn2nnc3ccccc32)c1 | ATCC 10231 |  | 299 µM
C[C@H]1[C@H](O)[C@@H](C)/C=C/C=C/C=C/C=C/C=C/C=C/C=C/[C@H](O[C@@H]2O[C@H](C)[C@@H](O)[C@H](N)[C@@H]2O)C[C@@H]2O[C@](O)(C[C@@H](O)C[C@@H](O)CC[C@H](O)[C@@H](O)C[C@@H](O)CC(=O)O[C@H]1C)C[C@H](O)[C@H]2C(=O)O | SC5314 | broth dilution | 1 µg/mL
N/C(=N\N=C(/Cn1ccnc1)c1ccc(Br)cc1)c1ccccn1 | Isolate 685 |  | 0.125 µg/mL
O=C(CSc1nnc(-c2ccco2)n1-c1ccc(Br)cc1)NNC(=S)Nc1ccc([N+](=O)[O-])cc1 | ATCC 10231 |  | 4 µg/mL
COc1ccc(OC)c(C2SCC(=O)N2CCc2ccccc2)c1 | NCIM 3102 | agar | 55 µg/mL
C[n+]1c2c(Cl)cccc2cc2sc3ccccc3c21 | ATCC 90028 | resazurin | >20 µg/mL
Clc1ccc(Nc2n[nH]c(CCn3cnc4ccccc43)n2)cc1 |  |  | 500 µg/mL
CCc1ccc(C2CC(=NOCc3ccccc3)CC(c3ccc(CC)cc3)N2C)cc1 |  |  | 100 µg/mL
CC1C(=O)N(c2ccccc2)C(=O)C1C | ATCC 10231 | broth dilution / turbidity | 125 µg/mL
C1CCC(C[C@H]2CN3C(=NC[C@H]3C3CCCCC3)N2CCC23CC4CC(CC(C4)C2)C3)CC1 | ATCC 10231 |  | 3–4 µg/mL
Cc1c(S(=O)(=O)c2ccccc2)[n+](=O)c2cc(Cl)ccc2n1[O-] | Clinical isolate 21 |  | 15.6 µg/mL
CO[C@@H](n1cncn1)[C@](O)(Cn1cncn1)c1ccccc1F |  |  | >100 µg/mL
CC(C)(C)C1CCC(CN2C3=NC[C@@H](C4CCCCC4)N3C[C@@H]2C2CCCCC2)CC1 | ATCC 10231 |  | 18–32 µg/mL
CCC(C)n1ncn(-c2ccc(N3CCN(c4ccc(OC[C@H]5CO[C@](Cn6cncn6)(c6ccc(Cl)cc6Cl)O5)cc4)CC3)cc2)c1=O | ATCC 64548 |  | 0.12 µg/mL
N#CC(CC(=O)O)C(N)C(=O)O | IAM4888 |  | 25 µg/mL
C1CCC(C[C@H]2CN3C(=NC[C@@H]3C3CCCCC3)N2CCC23CC4CC(CC(C4)C2)C3)CC1 | ATCC 10231 |  | >64 µg/mL
N/C(=N\N=C(/Cn1cncn1)c1ccc(-c2ccccc2)cc1)c1ccccn1 | Isolate 685 |  | 64 µg/mL
CCN1C2=NC[C@@H](CC3CCCCC3)N2C[C@@H]1Cc1ccccc1 | ATCC 10231 |  | >64 µg/mL
N/C(=N\N=C(/Cn1cncn1)c1ccc(Br)cc1)c1ccccn1 | Isolate 685 |  | 2 µg/mL
O=c1c(OC2CCCC2)c(N2CCN(S(=O)(=O)NCc3ccccc3)CC2)cnn1-c1cccc(Cl)c1 | C375 | broth dilution | 32 µg/mL
O=[n+]1c(Sc2ccccc2)c(CBr)n([O-])c2ccccc21 | Clinical isolate 21 |  | 31.25 µg/mL
CC(C)S(=O)(=O)N1CCN(c2cnn(-c3cc(F)cc(F)c3)c(=O)c2OC2CCC(F)C2)CC1 | CLY16996 | broth dilution | 0.03 µg/mL
O=C(O)CCC(=O)OC[C@@H](NC(=O)C(Cl)Cl)[C@H](O)c1ccc([N+](=O)[O-])cc1 |  |  | 500 µg/mL
CO[C@@H](n1cncn1)[C@@](O)(Cn1cncn1)c1ccc(Cl)cc1 |  |  | >100 µg/mL
COc1ccc(C=CC2=CC(=O)Cc3cc(OCCCn4ccnc4)ccc32)cc1 | ATCC 24433 |  | >200 µg/mL
Cn1cncc1C(=O)c1nccc2c1[nH]c1ccccc12 |  |  | >20 µg/mL
CC(C)c1cccc(-c2nc3[n+]([nH]2)CCN([C@H](C)[C@](O)(C[n+]2cnc[nH]2)c2ccc(F)cc2F)C3)c1 | SC5314 |  | 0.0625 µg/mL
CC(=O)[C@@H]1[C@H](O)[C@@H](O)C(=O)C=C[C@H]1C |  |  | 50 µg/mL
O=C1CSC(c2c(Cl)cccc2Cl)N1CCc1ccccc1 | NCIM 3102 | agar | 25 µg/mL
CCCCCCCCCCCCOC[n+]1cccc(NCn2cnc3ccccc32)c1 | ATCC 10231 |  | 17.5 µM
O=C1C=C(C=Cc2ccc(Cl)cc2)c2ccc(OCCCn3ccnc3)cc2C1 | ATCC 24433 |  | 25 µg/mL
CCCCCCCCCCOC[n+]1cccc(NCNc2ccc[n+](COCCCCCCCCCC)c2)c1 | ATCC 10231 |  | 13 µM
O=C(CSc1nnc(-c2ccco2)n1-c1ccc(Br)cc1)NNC(=S)Nc1ccc(F)cc1 | ATCC 10231 |  | 8 µg/mL
CO[C@@H](n1cncn1)[C@@](O)(Cn1cccn1)c1ccc(F)cc1F |  |  | >100 µg/mL
CCCCCOC[n+]1cccc(NCn2nnc3ccccc32)c1 | ATCC 10231 |  | >1383 µM
C[C@@H]1C(=O)N(CCc2ccccc2)C(=O)[C@@H]1C | ATCC 10231 | broth dilution / turbidity | 15.6 µg/mL
CCCCCCCCCOC[n+]1cccc(NCn2cnc3ccccc32)c1 | ATCC 10231 |  | 1200 µM
O=[N+]([O-])c1cn(CCc2nc(Nc3ccc(Cl)cc3)n[nH]2)cn1 |  |  | 500 µg/mL
CS[C@@H](n1cncn1)[C@@](O)(Cn1cncn1)c1ccc(Cl)cc1 |  |  | >100 µg/mL
COc1ccc(OC)c(C2SCC(=O)N2c2ccccn2)c1 | NCIM 3102 | agar | 40 µg/mL
CCCCNC(=S)NNC(=O)CSc1nnc(-c2ccco2)n1-c1ccc(Br)cc1 | ATCC 10231 |  | 8 µg/mL
CC1C(=O)N(Cc2ccccc2)C(=O)C1C | ATCC 10231 | broth dilution / turbidity | 125 µg/mL
N/C(=N\N=C(/Cn1ccnc1)c1ccc(Cl)cc1)c1ccccn1 | Isolate 685 |  | 0.125 µg/mL
CC1CC(=O)N(Cc2ccccc2)C1=O | ATCC 10231 | broth dilution / turbidity | 62.5 µg/mL
Fc1ccc(CCCCn2c3c(c4cc(F)ccc42)CNCC3)cc1 | 1378-17 |  | 0.06 µg/mL
CCC(C)n1ncn(-c2ccc(N3CCN(c4ccc(OC[C@H]5CO[C@](Cn6cncn6)(c6ccc(Cl)cc6Cl)O5)cc4)CC3)cc2)c1=O | ATCC 10231 |  | >0.015 µg/mL
N/C(=N\N=C(/Cn1ccnc1)c1ccc(-c2ccccc2)cc1)c1ccccn1 | Isolate 685 |  | 0.25 µg/mL
CC1C(=O)N(CCCCc2ccccc2)C(=O)C1C | ATCC 10231 | broth dilution / turbidity | 125 µg/mL
N/C(=N\N=C(/Cn1ccnc1)c1ccc(Br)s1)c1ccccn1 | Isolate 685 |  | 0.5 µg/mL
C[C@@H]1CC(=O)N(c2ccc(F)cc2)C1=O | ATCC 10231 | broth dilution / turbidity | 62.5 µg/mL
O=C1C=C(C=Cc2ccc(O)cc2)c2ccc(OCCCn3ccnc3)cc2C1 | ATCC 24433 |  | 125 µg/mL
CC(=O)N1CCN(c2ccc(OC[C@H]3CO[C@](Cn4ccnc4)(c4ccc(Cl)cc4Cl)O3)cc2)CC1 |  |  | 500 µg/mL
O=C(CSc1nnc(-c2ccco2)n1-c1ccc(Br)cc1)NNC(=S)Nc1ccc(Br)cc1 | ATCC 10231 |  | 8 µg/mL
Cc1nc([N+](=O)[O-])cn1CCc1nc(Nc2ccccc2)n[nH]1 |  |  | 500 µg/mL
O=C1CSC(c2ccccn2)N1c1ccc(Cl)cn1 | NCIM 3102 | agar | 57 µg/mL

8 of the rows above, restated:

smiles | strain | read by | result
C[n+]1c2cccc(Cl)c2cc2sc3ccccc3c21 | ATCC 90028 | resazurin | >20 µg/mL
O=C1CSC(c2ccccn2)N1c1ccc(Cl)cn1 | NCIM 3102 | agar | 57 µg/mL
N#CC(CC(=O)O)C(N)C(=O)O | IAM4888 |  | 25 µg/mL
O=[n+]1c(Sc2ccccc2)c(CBr)n([O-])c2ccccc21 | Clinical isolate 21 |  | 31.25 µg/mL
CO[C@@H](n1cncn1)[C@@](O)(Cn1cncn1)c1ccc(Cl)cc1 |  |  | >100 µg/mL
Cn1cncc1C(=O)c1nccc2c1[nH]c1ccccc12 |  |  | >20 µg/mL
N/C(=N\N=C(/Cn1ccnc1)c1ccc(Cl)cc1)c1ccccn1 | Isolate 685 |  | 0.125 µg/mL
Clc1ccc(Nc2n[nH]c(CCn3cnc4ccccc43)n2)cc1 |  |  | 500 µg/mL